Compound potency records, mixed from different reports. Data source: NIAID ChemDB in PubChem.

Common to all: toxicity to cultured cells; cells: Jurkat cells; endpoint: CC50

CCn is the concentration with n% toxicity to the cells.

compound,read by,value
COc1cc2c(c(OC)c1OC)-c1c(cc(OC)c(OC)c1OC)C[C@H](C)[C@H](C)C2,MTT,20 µM
C=C(C)[C@@H]1CC[C@]2(C)CCC3(C)[C@H](CC[C@@H]4[C@@]5(C)CC[C@H](O)C(C)(C)[C@@H]5CC[C@]43C)[C@@H]12,MTT / absorbance,>100 µM
CO[C@@H]1C[C@@H](C[C@H]2CC[C@H](C)[C@H]([C@@H](C)C(=O)O)O2)O[C@]2(O[C@](C)([C@H]3CC[C@@](C)([C@@H]4O[C@@H]([C@H]5O[C@@](O)(CO)[C@H](C)C[C@@H]5C)C[C@@H]4C)O3)C[C@H]2C)[C@@H]1C,luminescence,0.1 µM
Cc1cn([C@H]2C[C@H](N=[N+]=[N-])[C@@H](CO)O2)c(=O)[nH]c1=O,,>25 µM
COc1cc([C@@H]2c3cc4c(cc3[C@H](O)[C@H]3COC(=O)[C@@H]23)OCO4)cc(OC)c1OC,luminescence,0.2 µM
COc1ccc(C=O)c(O)c1,MTT / absorbance,>100 µM
CC(=O)c1c(O)c(C)c(O)c(Cc2c(O)c3c(c(C(=O)/C=C/c4ccccc4)c2O)OC(C)(C)C=C3)c1O,ATP / luminescence,4.149 µM
Nc1nc(=O)n([C@H]2CO[C@@H](CO)S2)cc1F,,>500 µM
NC(=O)c1cc2c(-c3ccc4c(c3)CCO4)cncc2s1,MTT,19.2 µM
CC(C)=CCOc1c2occc2cc2ccc(=O)oc12,,>50 µM
C=C(C)[C@@H]1CC[C@]2(C)CC[C@]3(C)[C@H](CC[C@@H]4[C@@]5(C)CC[C@H](OC(C)=O)C(C)(C)[C@@H]5CC[C@]43C)[C@@H]12,MTT / absorbance,>100 µM
Cc1cc(=O)c2ccc(N=C=S)cc2o1,MTT,8.88 µM
Nc1ccn([C@H]2CO[C@@H](CO)S2)c(=O)n1,,450 µM
C[n+]1cc2c3c(ccc2c2ccc4cc5c(cc4c21)OCO5)OCO3,luminescence,2.2 µM
Cc1cn([C@H]2C[C@H](N=[N+]=[N-])[C@@H](CO)O2)c(=O)[nH]c1=O,,1721 µM
CC(C)C1=C[C@H](c2ccccc2)CC[C@H]1O,,>1000 µM

An empty or dashed field is not shown. Lines come from different laboratories, so protocols vary.